Compound potency records, mixed from different reports. Data source: NIAID ChemDB in PubChem.

All rows: growth or infection tests; agent: Mycobacterium tuberculosis

MIC bound: limit read from a one-dose screen. a–b is a range or a potency band. A number after MIC or MFC names an inhibition level or a share of isolates. Percent inhibition refers to the dose given; in toxicity tests it is the harm to the cells. Blank or dashed fields: not listed here. ECn: concentration that inhibits the pathogen or its effect by n%. Rows are shuffled and stem from different studies.

compound	measure	mutations	method	tested at	strain or isolate	value
NC(=O)c1csc(Nc2csc(N)n2)n1	MIC bound		BACTEC		H37Rv	>12.5 µg/mL
CC(=O)O[C@H]1CC[C@]2(C)[C@H]3CC[C@@H]4[C@H]5[C@H](C(C)=O)CC[C@]5(C)CC[C@@]4(C)[C@]3(C)CC[C@H]2C1(C)C	MIC				H37Rv	>128 µM
c1ccc2c(c1)NCCOCCNc1ccccc1OCCNCCO2	MIC bound		BACTEC		H37Rv	>12.5 µg/mL
C[C@H]1CCC[C@]2(C)C[C@H]3OC(=O)C(O)(CO)[C@H]3C=C12	MIC				H37Rv	>128 µg/mL
Cc1cn2c(C(=O)NCc3ccc(N4CCC5(CC4)OCC(C)CO5)cc3)c(C)nc2s1	MIC		luminescence		H37Rv	31.7 µM
c1ccc(C(Cn2ccnc2)OCc2cccc3ccccc23)cc1	MIC				CIP103471	1 µg/mL
CN(C)C1=C(Cl)C(=O)C(=O)c2cccnc21	MIC bound		BACTEC		H37Rv	>12.5 µg/mL
CC(C)CCC[C@@H](C)CCC[C@@H](C)CCCC(C)CC(=O)O	MIC				H37Rv	>128 µg/mL
C[C@@H](O)[C@H]1C(=O)N2C(C(=O)O)=C(S[C@@H]3CCCN3C3CCOCC3)S[C@H]12	MIC		visual reading		H37Rv	4 µg/mL
COC/C=C(\C)CCC[C@H](C)CCC[C@H](C)CCCC(C)C	MIC				H37Rv	16 µg/mL
O=c1[nH]c(=O)n(C2C=CC(O)C2)cc1Nc1ccc(Oc2ccccc2)cc1	MIC99		turbidity		H37Rv	40 µg/mL
Cc1cn2c(C(=O)NCc3ccc(C(F)(F)F)cc3)c(C)nc2s1	MIC	QcrB5 M342I	resazurin / fluorescence		H37Rv	0.3 µM
O=C(O)[C@H]1/C(=C/CO)O[C@@H]2CC(=O)N21	MIC				H37Rv	64 µg/mL
CCCCCCCCC=CCCCCCCCCNCc1cccnc1	MIC				H37Ra	<25 µg/mL
CCOC(=O)c1cc(-c2ccccc2)n(CC(=O)N/N=C/c2ccc[nH]2)c1C	inhibition		BACTEC	6.25 µg/mL	H37Rv	2%
CC(=O)Oc1cccc2c1C(=O)C=C(C)C2=O	MIC		resazurin		H37Rv	34.8 µM
CCCCOc1ccc(Nc2cn(C3C=CC(O)C3)c(=O)n(C3C=CC(O)C3)c2=O)cc1	MIC99		turbidity		H37Rv	20 µg/mL
c1ccc(Cn2cnc3c(-c4ccccc4)ncnc32)cc1	EC50		BACTEC		H37Rv	<12.5 µg/mL
CCCCCCCCCCCCCCCCNC(CC(=O)OCC)[C@H]1O[C@@H]2OC(C)(C)O[C@@H]2[C@H]1OCc1ccccc1	MIC				H37Ra	>25 µg/mL
Cc1cc(C)c(C(=O)NN)[nH]1	EC50		BACTEC		H37Rv	>6.25 µg/mL
CC1(C)S[C@@H]2[C@H](NC(=O)C(C(=O)O)c3ccccc3)C(=O)N2[C@H]1C(=O)O	MIC		resazurin		H37Rv	512 µg/mL
CO[C@H]1/C=C/O[C@@]2(C)Oc3c(C)c(O)c4c(O)c(c(/C=N/N5CCN(C)CC5)c(O)c4c3C2=O)NC(=O)/C(C)=C\C=C\[C@H](C)[C@H](O)[C@@H](C)[C@@H](O)[C@@H](C)[C@H](OC(C)=O)[C@@H]1C	MIC				H37Rv (isoniazid-resistant)	10 µg/mL
COC1/C=C\C=C(\C)C(=O)NC2=CC(=O)C(=O)C(=C2O)CC(C)CC(OC)C(O)C(C)/C=C(/C)C1OC(N)=O	inhibition		BACTEC	12.5 µg/mL	H37Rv	2%
O=C(Nc1cccc(Cl)c1)c1ccc([N+](=O)[O-])o1	MIC				H37Ra	0.8 µg/mL
N#Cc1ncnc2c1ncn2Cc1ccccc1	EC50		BACTEC		H37Rv	<12.5 µg/mL
C=C1C(=O)OC2C/C(C)=C/CCC3OC3[C@H](O)[C@H]12	MIC				H37Rv	16 µg/mL
CC1(C)S[C@@H]2[C@H](NC(=O)[C@H](N)c3ccccc3)C(=O)N2[C@H]1C(=O)O	MIC				H37Rv	16–32 µg/mL
C[C@@H](O)[C@H]1C(=O)N2C(C(=O)O)=C(SC3CN(C4=NCCS4)C3)S[C@H]12	MIC		visual reading		H37Rv	0.5 µg/mL
CCCCOc1ccc(Nc2c[nH]c(=O)[nH]c2=O)cc1	MIC99		turbidity		H37Rv	5 µg/mL
Cc1ccc(C(Cn2ccnc2)OC/C=C/c2ccccc2)cc1	MIC				CIP103471	4 µg/mL
CCOC(=O)CC(N)[C@H]1O[C@@H]2OC(C)(C)O[C@@H]2[C@H]1OC	MIC				H37Ra	>25 µg/mL
NC(=O)C1CCC2CN1C(=O)N2OS(=O)(=O)O	MIC				H37Rv	512 µg/mL
Cc1cn2c(C(=O)NCc3ccc(N4CCOCC4)c(F)c3)c(C)nc2s1	MIC	cydKO	resazurin / fluorescence		H37Rv	0.125 µM
Cc1c(N2CC(C)OC(C)C2)c([N+](=O)[O-])cc2c(=O)c(C(=O)O)cn(-c3ccc(F)cc3F)c12	MIC				H37Rv	6.61 µM
O=[N+]([O-])c1ccc(N=P(c2ccccc2)(c2ccccc2)c2ccccc2)n2nnnc12	MIC bound		resazurin		H37Rv	>6.25 µg/mL
CCOC(=O)c1cc(-c2ccc(Cl)cc2)n(CC(=O)NN)c1C	EC50		BACTEC		H37Rv	>6.25 µg/mL
Cc1c(N2CCc3ccccc3C2C(=O)NC(C)(C)C)c([N+](=O)[O-])cc2c(=O)c(C(=O)O)cn(C3CC3)c12	MIC				H37Rv	1.5 µM
Cc1ccc2nc(-c3ccc(Cl)cc3Cl)oc(=O)c2c1	MIC bound		BACTEC		H37Rv	>12.5 µg/mL
CCCCCCCCCCCCNC(CCO)c1cccc([N+](=O)[O-])c1	MIC				H37Ra	<25 µg/mL
Clc1ccc(C(Cn2ccnc2)OCc2ccc(-c3ccccc3)cc2)cc1	MIC				CIP103471	2 µg/mL
O=c1nc(Nc2cccc(Cl)c2)oc2cc(Cl)oc(=O)c12	MIC bound		BACTEC		H37Rv	>12.5 µg/mL
CCCC(=O)Oc1cccc2c1C(=O)C=C(C)C2=O	MIC		resazurin		H37Rv	77.4 µM
CCCCCCCCCCCCCCCCNC(CC(=O)O)[C@H]1O[C@@H]2OC(C)(C)O[C@@H]2[C@H]1OC	MIC				H37Ra	>50 µg/mL
CC(C)(C)c1ccc(COC(Cn2ccnc2)c2ccc(Cl)cc2)cc1	MIC				CIP103471	1 µg/mL
CCCCCCCCC=CCCCCCCCCNCc1ccc(Cl)cc1	MIC				Sensitive strains	3.12 µg/mL
Cc1cn2c(C(=O)NCc3ccccc3C(F)(F)F)c(C)nc2s1	MIC		luminescence		H37Rv	>100 µM
CCOC(=O)CC(NCc1ccccc1)c1cccc([N+](=O)[O-])c1	MIC				H37Ra	>25 µg/mL
Cc1c(N2CCn3cc(C(=O)O)nc3C2)c([N+](=O)[O-])cc2c(=O)c(C(=O)O)cn(C3CC3)c12	MIC				H37Rv	0.42 µM
C=C(OCC)c1nc(Cl)nc2c1ncn2Cc1ccccc1	EC50		BACTEC		H37Rv	<12.5 µg/mL
CCCCCCCCCCCCNC(CC(=O)OCC)[C@H]1O[C@@H]2OC(C)(C)O[C@@H]2[C@H]1OCc1ccccc1	MIC				H37Rv	50 µg/mL
CCOC(=O)c1cc(-c2ccc(C)cc2)n(CCC(=O)NN)c1C	EC50		BACTEC		H37Rv	>6.25 µg/mL
CC1CC(N)=NC1C(=O)NCCC#N.Cl	inhibition		BACTEC	12.5 µg/mL	H37Rv	30%
CC1(C)CC[C@]2(C(=O)O)CC[C@]3(C)C(=CCC4[C@@]5(C)CC[C@@H](O)C(C)(C)C5CC[C@]43C)C2C1	MIC				H37Rv	16 µg/mL
CO[C@H]1/C=C/O[C@@]2(C)Oc3c(C)c(O)c4c(O)c(c(/C=N/N5CCN(C)CC5)c(O)c4c3C2=O)NC(=O)/C(C)=C\C=C\[C@H](C)[C@H](O)[C@@H](C)[C@@H](O)[C@@H](C)[C@H](OC(C)=O)[C@@H]1C	MIC				K1	1 µg/mL
CCOC(=O)CCCNC(CC(=O)OCC)[C@H]1O[C@@H]2OC(C)(C)O[C@@H]2[C@H]1OC	MIC				H37Ra	>25 µg/mL
C=C[C@@](C)(O)CC/C=C(/C)CCC=C(C)C	MIC				H37Rv	32 µg/mL
NNC(=O)C(=O)Nc1nccs1	inhibition		BACTEC	12.5 µg/mL	H37Rv	-1%
Cc1c[nH]c(C)c1C(=O)N/N=C/c1ccc([N+](=O)[O-])o1	inhibition		BACTEC	6.25 µg/mL	H37Rv	0%
CN1C(=O)[C@]23CC4=CC=C[C@H](O)[C@H]4N2C(=O)[C@@]1(CO)SS3	inhibition		resazurin	6.25 µg/mL	H37Rv	99%
C[C@@H](O)[C@H]1C(=O)N2C(C(=O)O)=C(S[C@@H]3CN[C@H](C(=O)N(C)C)C3)[C@H](C)[C@H]12	MIC		resazurin		H37Rv	8 µg/mL
C=C(OCC)c1ncnc2c1ncn2Cc1ccccc1	EC50		BACTEC		H37Rv	<12.5 µg/mL
C=C(C)[C@@H]1CC[C@]2(C)CC[C@]3(C)[C@H](CC[C@@H]4[C@@]5(C)CC[C@H](OC(C)=O)C(C)(C)[C@@H]5CC[C@]43C)[C@@H]12	MIC				H37Rv	>128 µM
COCCNC(=O)c1ccc2c(c1)[n+](=O)c(C(C)=O)c(C)n2[O-]	MIC bound		resazurin		H37Rv	>6.25 µg/mL
COc1ccc(OC)c(NCc2cnc3nc(N)nc(N)c3c2C)c1	MIC				H37Rv	12.5 µg/mL
COc1cc2c(c3c1C(=O)[C@H](C)[C@@H](C)O3)C=CC(C)(C)O2	inhibition		BACTEC	12.5 µg/mL	H37Rv	0%
Cc1c(N2CCSCC2)c([N+](=O)[O-])cc2c(=O)c(C(=O)O)cn(C(C)(C)C)c12	MIC				H37Rv	30.83 µM
Oc1c(Cl)c(Cl)c(Cl)c2cccnc12	inhibition		BACTEC	6.25 µg/mL	H37Rv	85%
CCOC(=O)CCNC(CC(=O)OCC)[C@H]1O[C@@H]2OC(C)(C)O[C@@H]2[C@H]1OC	MIC				H37Rv	50 µg/mL
CCOC(=O)CC(NCc1ccccc1)c1cccc(Cl)c1	MIC				Sensitive strains	12.5 µg/mL
Cc1c2c(cc3c1[nH]c1ccccc13)C(C(F)(F)F)=NCC2	MIC bound		resazurin		H37Rv	>6.25 µg/mL
C/C=C(/C)C(=O)OC1CC(C)(C)CC2C3=CCC4C5(C)CC[C@H](O)C(C)(C)C5CC[C@@]4(C)[C@]3(C)CC[C@@]12C(=O)O	MIC				H37Rv (isoniazid-resistant)	50 µg/mL
CC1CC(O)C(=O)C(O[C@@H]2C[C@@H]3CC[C@@H]4[C@H](CC[C@]5(C)[C@@H](C6=CC(=O)OC6)CC[C@]45O)[C@@]3(C=O)CC2O)O1	inhibition		BACTEC	12.8 µg/mL	H37Rv	0%
CCOC(=O)c1cc(-c2ccc(Cl)cc2)n(CC(=O)N/N=C/c2ccc([N+](=O)[O-])o2)c1C	EC50		BACTEC		H37Rv	<6.25 µg/mL
O=C(Nc1ccccc1)c1cc(-n2cnc([N+](=O)[O-])c2)ccn1	MIC				FQR-M13	0.625 µg/mL
CCOC(=O)CC(NC(C)CCCC(C)C)[C@H]1O[C@@H]2OC(C)(C)O[C@@H]2[C@H]1OC	MIC				H37Ra	>25 µg/mL
C=C1C(=C)C2OC1c1cc3c(cc12)C(=O)c1ccccc1C3=O	inhibition		BACTEC	12.5 µg/mL	H37Rv	51%
CCCCCCCCCCCCCCCCNCc1cccnc1	MIC				H37Ra	<25 µg/mL
Cc1cc(O)c(C=NC(=S)c2ccncc2)c(=O)o1	MIC bound		resazurin		H37Rv	>6.25 µg/mL
CC1=CC(=O)c2c(OC(=O)c3ccccc3)cccc2C1=O	MIC		resazurin		H37Rv	27.4 µM
CC1(C)NC(C(=O)O)Cc2c1[nH]c1ccccc21	MIC bound		resazurin		H37Rv	>6.25 µg/mL
C/C=C/C/C=C/CCC(=O)[C@H]1O[C@H]1C(N)=O	MIC				H37Rv	3 µg/mL
C/C=C1\CN2CC[C@]34C(=C(C(=O)OC)[C@H]1C[C@H]23)Nc1ccc(O)cc14	MIC		BACTEC		H37Rv	≥12.5 µg/mL
CCOC(=O)c1cc(-c2cccc([N+](=O)[O-])c2)n(CCC(=O)NN)c1C	inhibition		BACTEC	6.25 µg/mL	H37Rv	0%

For reference, 8 entries again:

compound | measure | mutations | method | tested at | strain or isolate | value
CCOC(=O)CC(N)[C@H]1O[C@@H]2OC(C)(C)O[C@@H]2[C@H]1OC | MIC |  |  |  | H37Ra | >25 µg/mL
Cc1cc(C)c(C(=O)NN)[nH]1 | EC50 |  | BACTEC |  | H37Rv | >6.25 µg/mL
c1ccc2c(c1)NCCOCCNc1ccccc1OCCNCCO2 | MIC bound |  | BACTEC |  | H37Rv | >12.5 µg/mL
C=C[C@@](C)(O)CC/C=C(/C)CCC=C(C)C | MIC |  |  |  | H37Rv | 32 µg/mL
O=c1[nH]c(=O)n(C2C=CC(O)C2)cc1Nc1ccc(Oc2ccccc2)cc1 | MIC99 |  | turbidity |  | H37Rv | 40 µg/mL
C=C1C(=C)C2OC1c1cc3c(cc12)C(=O)c1ccccc1C3=O | inhibition |  | BACTEC | 12.5 µg/mL | H37Rv | 51%
O=C(Nc1ccccc1)c1cc(-n2cnc([N+](=O)[O-])c2)ccn1 | MIC |  |  |  | FQR-M13 | 0.625 µg/mL
CC1CC(N)=NC1C(=O)NCCC#N.Cl | inhibition |  | BACTEC | 12.5 µg/mL | H37Rv | 30%